Pooled drug test results. Numbers come from NIAID ChemDB, via PubChem.

Common to all: toxicity to cultured cells; cell line: MT-4; read-out: CC50

CCn: concentration that lowers growth or viability of the cells by n%.

structure,read by,result
CC(C)Nc1cccnc1N1CCN(C(=O)c2ccc(-c3ccc(N)cc3)[nH]2)CC1,-,27 µM
CC(C)C(NC(=O)OC(C)(C)C)C(=O)O[C@@H](C[C@@H](Cc1ccccc1)C(=O)N1[C@H]2c3ccccc3C[C@H]2OC1(C)C)CN1CCN(Cc2cccnc2)C[C@H]1C(=O)NC(C)(C)C,-,0.07 µM
Cc1c([C@@H](C)c2c(F)cccc2F)nc(SC2CCCC2)[nH]c1=O,-,>200 µM
Cc1cn([C@H]2C[C@H](N=[N+]=[N-])[C@@H](CO)O2)c(=O)[nH]c1=O,-,>0.5 µg/mL
COCCOCCOCCOCCOCCOCCOCCOC(=O)CCC(=O)O[C@@H]1Cc2ccccc2[C@@H]1NC(=O)[C@H](Cc1ccccc1)C[C@H](O)CN1CCN(Cc2cccnc2)C[C@H]1C(=O)NC(C)(C)C,-,>0.1 µM
COc1ccc2nc3cc(Cl)ccc3c(NN3CCN(C)CC3)c2c1,MTT,8 µM
CC(C)Nc1cccnc1N1CCN(C(=O)c2ccc(-c3ccccc3N)[nH]2)CC1,-,72 µM
COc1ccc2nc3cc(Cl)ccc3c(NCC(C)N(C)C)c2c1,MTT,5.7 µM
CCc1cn([C@H]2C[C@H](N=[N+]=[N-])[C@@H](CO)O2)c(=O)[nH]c1=O,-,418 µM
Fc1cccc(F)c1C1OCc2nc3ccccc3n21,-,62 µM
COc1c(O)c(I)c2c(c1OC)-c1c(c(I)c(O)c(OC)c1OC)C[C@H](C)[C@H](C)C2,-,21 µM
CO[C@H]1O[C@@H](n2ccc(=O)[nH]c2=O)C[C@@H]1N=[N+]=[N-],-,244 µM
CC(C)Nc1cccnc1N1CCN(C(=O)c2ccc(-c3ccccc3NS(C)(=O)=O)[nH]2)CC1,-,>200 µM
c1ccc(C2OCc3nc4ccccc4n32)cc1,-,47 µM
COc1ccc2nc3cc(Cl)ccc3c(N3CCN(CCO)CC3)c2c1,MTT,9 µM
Cc1cn([C@H]2C[C@H](N=[N+]=[N-])[C@@H](CO)O2)c(=O)[nH]c1=O,-,35 µg/mL
Nc1ccn([C@H]2C[C@H](F)[C@@H](CO)O2)c(=O)n1,-,26 µM
COc1c(O)c(Cl)c2c(c1OC)-c1c(c(Cl)c(O)c(OC)c1OC)C[C@H](C)[C@H](C)C2,-,41.9 µM
CCc1cn([C@H]2C[C@H](F)[C@@H](CO)O2)c(=O)[nH]c1=O,-,>625 µM
O=C(/C=C/c1ccc(O)cc1)c1ccc(O)cc1O,-,14 µg/mL
CN=C1N(C)C(=O)OC12[C@@H](CO[Si](C)(C)C(C)(C)C)O[C@@H](n1cc(C)c(=O)n(C)c1=O)[C@@H]2O[Si](C)(C)C(C)(C)C,-,21.9 µM
COc1ccc2nc3cc(Cl)ccc3c(N)c2c1,MTT,1.8 µM
Cc1cn([C@H]2C[C@H](N=[N+]=[N-])[C@@H](CO)O2)c(=O)[nH]c1=O,-,210 µM
Nc1ccn([C@H]2CC[C@@H](CO)O2)c(=O)n1,-,40 µM
CCCCCCCCCCCCCC(=O)O[C@@H](C[C@@H](Cc1ccccc1)C(=O)N[C@H]1c2ccccc2C[C@H]1OC(=O)CCCCCCCCCCCCC)CN1CCN(Cc2cccnc2)C[C@H]1C(=O)NC(C)(C)C,-,>0.01 µM
CC1(C)C=Cc2c(ccc(-c3coc4cc(O)ccc4c3=O)c2O)O1,-,40 µg/mL
Cc1cn([C@H]2C[C@H](N=[N+]=[N-])[C@@H](CO)O2)c(=O)[nH]c1=O,-,20 µM
C[C@@H](Cn1cnc2c(N)ncnc21)OCP(=O)(O)O,-,>300 µM
C[C@H](NP(=O)(OC[C@H]1C=C[C@@H](n2cnc3c(N)ncnc32)C1)Oc1ccccc1)C(=O)OC(C)(C)C,trypan blue,84.9 µM
COc1c(-c2ccc(O)c(O)c2)oc2c(CC=C(C)C)c(O)c(CC=C(C)C)c(O)c2c1=O,-,>200 µg/mL
CC(C)(C)NC(=O)[C@@H]1CN(Cc2cccnc2)CCN1C[C@H](C[C@@H](Cc1ccccc1)C(=O)N[C@H]1c2ccccc2C[C@H]1O)OC(=O)COc1ccc(C[C@H](N)C(=O)O)cc1,-,>0.1 µM
Cc1cn([C@H]2C[C@H](N=[N+]=[N-])[C@@H](CO)O2)c(=O)[nH]c1=O,-,2.01 µg/mL
CC(C)Nc1cccnc1N1CCN(C(=O)c2ccc(-c3cccc(N)c3)[nH]2)CC1,-,42 µM
COc1cc(O)ccc1/C=C/C(=O)c1ccc(O)cc1,-,12 µg/mL
COc1ccc2nc3cc(Cl)ccc3c(Nc3ccco3)c2c1,MTT,7 µM
COC(=O)[C@@H](Cc1c[nH]c2ccccc12)NP(=O)(OC[C@H]1C=C[C@@H](n2cnc3c(N)ncnc32)C1)Oc1ccccc1,trypan blue,66.9 µM
O=c1c(O)c(-c2ccc(O)c(O)c2)oc2cc(O)cc(O)c12,-,54 µg/mL
CC(C)OC(=O)[C@H](C)NP(=O)(OC[C@H]1C=C[C@@H](n2cnc3c(N)ncnc32)C1)Oc1ccccc1,MTS,100 µM
COc1ccc2nc3cc(Cl)ccc3c(NCCN3CCOCC3)c2c1,MTT,1.8 µM
COC(=O)[C@H](C)NP(=O)(OC[C@H]1C=C[C@@H](n2cnc3c(N)ncnc32)C1)Oc1ccccc1,trypan blue,16.4 µM
Cc1cn([C@@H]2O[C@H](CO[Si](C)(C)C(C)(C)C)C3(OS(=O)(=O)C=C3N)[C@H]2O[Si](C)(C)C(C)(C)C)c(=O)n(C)c1=O,-,227 µM

A second listing of 5 rows from above:

structure | read by | result
O=C(/C=C/c1ccc(O)cc1)c1ccc(O)cc1O | - | 14 µg/mL
COCCOCCOCCOCCOCCOCCOCCOC(=O)CCC(=O)O[C@@H]1Cc2ccccc2[C@@H]1NC(=O)[C@H](Cc1ccccc1)C[C@H](O)CN1CCN(Cc2cccnc2)C[C@H]1C(=O)NC(C)(C)C | - | >0.1 µM
COC(=O)[C@H](C)NP(=O)(OC[C@H]1C=C[C@@H](n2cnc3c(N)ncnc32)C1)Oc1ccccc1 | trypan blue | 16.4 µM
Cc1cn([C@H]2C[C@H](N=[N+]=[N-])[C@@H](CO)O2)c(=O)[nH]c1=O | - | 210 µM
COc1c(O)c(Cl)c2c(c1OC)-c1c(c(Cl)c(O)c(OC)c1OC)C[C@H](C)[C@H](C)C2 | - | 41.9 µM

Blank or dashed fields: not listed here. Rows are shuffled and stem from different studies.